Measured values as given in PMC4369318, “High-sensitivity MALDI-TOF MS quantification of anthrax lethal toxin for diagnostics and evaluation of medical countermeasures” (2015).

Key:
[1] = target: protective antigen, 63 kDa activated form (PA63) (Bacillus anthracis) (UniProt P13423)
[2] = target: protective antigen, 63 kDa activated form (PA63) (Bacillus anthracis) (UniProt P13423); test: native gel or EMSA

Substance	LTx complex formed, in plasma [1]	LTx complex formed, in serum [1]	free (unbound) LF, percent of total LF loaded [2]
lethal factor (LF) (from UniProt P15917 34-809)	2 ng/mL	1.8 ng/mL	
lethal factor (LF) (from UniProt P15917 34-809) (enzyme)			3%
